Pooled drug test results. Numbers come from NIAID ChemDB, via PubChem.

All rows: growth or infection tests; agent: Measles virus; measure: EC50

Blank or dashed fields: not listed here.

smiles,cell line,read by,strain or isolate,value
N#Cc1c(SCCCBr)nsc1-c1ccccc1,HEP-2,plaque count,Edmonston,>25 µg/mL
Cc1cn([C@@H]2C[C@@H](O)[C@H](CO)O2)c(=O)[nH]c1=O,CV-1,-,-,>100 µM
CC[C@@H](C(C)C)[C@@H](O)[C@H](O)[C@@H](C)[C@H]1CC[C@H]2[C@@H]3CC(=O)[C@H]4C[C@@H](OC(C)=O)CC[C@]4(C)[C@H]3CC[C@]12C,VERO,plaque count,MV/Brazil/001/91,40 µM
NC(=O)c1csc([C@@H]2O[C@H](CO)[C@@H](O)[C@H]2O)n1,VERO,cytopathic effect,Edmonston,42 µg/mL
Nc1cc2[nH]cnc2c(=O)[nH]1,VERO,plaque count,Niigata-1,0.7 µg/mL
Nc1nccc2c1ncn2[C@@H]1C[C@H](CO)[C@@H](O)[C@H]1O,VERO,cytopathic effect,-,0.4 µg/mL
OCC1OC2OC3C(CO)OC(OC4C(CO)OC(OC5C(CO)OC(OC6C(CO)OC(OC7C(CO)OC(OC8C(CO)OC(OC9C(CO)OC(OC1C(O)C2O)C(O)C9O)C(O)C8O)C(O)C7O)C(O)C6O)C(O)C5O)C(O)C4O)C(O)C3O,VERO,plaque count,CAM/RB,>2560 µM
Nc1nc(=O)c2nc(-c3ccccc3)n([C@@H]3O[C@H](CO)[C@@H](O)[C@H]3O)c2c(=O)[nH]1,HepG2.2.15,neutral red,-,0.5 µM
NC(=O)c1ncn([C@@H]2O[C@H](CO)[C@@H](O)[C@H]2O)n1,VERO,cytopathic effect,Sugiyama,8 µg/mL
Nc1nccc2c1ncn2[C@@H]1C[C@H](CO)[C@@H](O)[C@H]1O,VERO,cytopathic effect,-,0.4 µg/mL
OC[C@H]1O[C@@H]2O[C@H]3[C@H](O)[C@@H](O)[C@@H](O[C@H]4[C@H](O)[C@@H](O)[C@@H](O[C@H]5[C@H](O)[C@@H](O)[C@@H](O[C@H]6[C@H](O)[C@@H](O)[C@@H](O[C@H]7[C@H](O)[C@@H](O)[C@@H](O[C@H]8[C@H](O)[C@@H](O)[C@@H](O[C@H]1[C@H](O)[C@H]2O)O[C@@H]8CO)O[C@@H]7CO)O[C@@H]6CO)O[C@@H]5CO)O[C@@H]4CO)O[C@@H]3CO,VERO,plaque count,CAM/RB,>2560 µM
Nc1ccn([C@@H]2C[C@H](CO)[C@@H](O)[C@H]2O)c(=O)n1,VERO,cytopathic effect,-,0.7 µg/mL
CC[C@H](/C=C/[C@@H](C)[C@H]1CC[C@H]2[C@@H]3CC(=O)[C@H]4C[C@H](O)[C@H](O)C[C@]4(C)[C@H]3CC[C@]12C)C(C)C,VERO,plaque count,MV/Brazil/001/91,40 µM
CN(C)c1nsc(-c2ccccc2)c1C#N,HEP-2,plaque count,Edmonston,>15 µg/mL
Nc1ncnc2c1ncn2C[C@H](O)CO,VERO,cytopathic effect,-,40 µg/mL
CC[C@@H](C(C)C)[C@@H](O)[C@H](O)[C@@H](C)[C@H]1CC[C@H]2[C@@H]3CC(=O)[C@@]4(O)C[C@@H](F)CC[C@]4(C)[C@H]3CC[C@]12C,VERO,plaque count,MV/Brazil/001/91,16 µM
COC(=O)c1c(SC)nsc1-c1ccccc1,HEP-2,plaque count,Edmonston,>100 µg/mL
Nc1ncnc2c1ncn2[C@@H]1C[C@@H](O)[C@H](CO)O1,CV-1,-,-,>100 µM
CC[C@@H](C(C)C)[C@H](O)[C@@H](O)[C@@H](C)[C@H]1CC[C@H]2[C@@H]3CC(=O)[C@@]4(O)C[C@H](O)[C@H](O)C[C@]4(C)[C@H]3CC[C@]12C,VERO,plaque count,MV/Brazil/001/91,58 µM
N#Cc1c(SCCCCBr)nsc1-c1ccccc1,HEP-2,plaque count,Edmonston,>25 µg/mL
Nc1ncnc2c1ncn2[C@@H]1C[C@@H](O)[C@H](CO)O1,CV-1,-,-,>100 µM
CC[C@@H](C(C)C)[C@H](O)[C@@H](O)[C@@H](C)[C@H]1CC[C@H]2[C@@H]3CC(=O)[C@@]4(O)C[C@@H](O)CC[C@]4(C)[C@H]3CC[C@]12C,VERO,plaque count,MV/Brazil/001/91,26 µM
CC1(C)[C@@H](O[C@H]2O[C@H](C(=O)O)[C@@H](O)[C@H](O)[C@H]2O[C@@H]2O[C@H](C(=O)O)[C@@H](O)[C@H](O)[C@H]2O)CC[C@]2(C)[C@H]3C(=O)C=C4[C@@H]5C[C@@](C)(C(=O)O)CC[C@]5(C)CC[C@@]4(C)[C@]3(C)CC[C@@H]12,VERO,plaque count,Sugiyama,1000 µg/mL
C[C@@H](O)C1=C[C@@H](n2cnc3c(N)ncnc32)[C@H](O)[C@@H]1O,VERO,plaque count,Toyoshima,0.25 µg/mL
O=C1C=CN([C@@H]2O[C@H](CO)[C@@H](O)[C@H]2O)C(=O)C1,VERO,plaque count,Niigata-1,>500 µg/mL
CSc1nsc(-c2ccccc2)c1C(N)=O,HEP-2,plaque count,Edmonston,>250 µg/mL
NC(=O)c1ncn([C@@H]2O[C@H](CO)[C@@H](O)[C@H]2O)n1,CV-1,cytopathic effect,Edmonston,10 µg/mL
CC[C@@H](C(C)C)[C@@H](O)[C@H](O)[C@@H](C)[C@H]1CC[C@H]2[C@@H]3CC(=O)[C@H]4C[C@@H](Br)CC[C@]4(C)[C@H]3CC[C@]12C,VERO,plaque count,MV/Brazil/001/91,76 µM
Nc1ccn([C@@H]2C[C@@H](O)[C@H](CO)O2)c(=O)n1,CV-1,-,-,>100 µM
O=c1cnn([C@@H]2O[C@H](CO)[C@@H](O)[C@H]2O)c(=O)[nH]1,VERO,plaque count,Niigata-1,0.84 µg/mL
C/C=C/Cc1cn([C@@H]2O[C@H](CO)[C@@H](O)[C@H]2O)c2ncnc(N)c12,VERO,cytopathic effect,-,>100 µg/mL
CCCSc1nsc(-c2ccccc2)c1C(=O)O,HEP-2,plaque count,Edmonston,>500 µg/mL
CC[C@@H](C(C)C)[C@H](O)[C@@H](O)[C@@H](C)[C@H]1CC[C@H]2[C@@H]3CC(=O)[C@H]4C[C@@H](Br)CC[C@]4(C)[C@H]3CC[C@]12C,VERO,plaque count,MV/Brazil/001/91,38 µM
NC12CC3CC(CC(C3)C1)C2,VERO,plaque count,Yamagata-1,90 µg/mL
COC(C)c1cn([C@@H]2O[C@H](CO)[C@@H](O)[C@H]2O)c2ncnc(N)c12,VERO,cytopathic effect,-,>40 µg/mL
Nc1nc2c(ncn2CCOCP(=O)(O)O)c(=O)[nH]1,-,cytopathic effect,Chicago,0.03 µg/mL
NC(=O)c1ncn([C@@H]2O[C@H](CO)[C@@H](O)[C@H]2O)n1,VERO,plaque count,Kitaken-1,6.8 µg/mL
Nc1ncnc2c1ncn2C[C@@H](O)[C@H](O)C(=O)O,VERO,cytopathic effect,-,40 µg/mL

4 of the rows above, restated:

| smiles | cell line | read by | strain or isolate | value |
|---|---|---|---|---|
| NC12CC3CC(CC(C3)C1)C2 | VERO | plaque count | Yamagata-1 | 90 µg/mL |
| CC1(C)[C@@H](O[C@H]2O[C@H](C(=O)O)[C@@H](O)[C@H](O)[C@H]2O[C@@H]2O[C@H](C(=O)O)[C@@H](O)[C@H](O)[C@H]2O)CC[C@]2(C)[C@H]3C(=O)C=C4[C@@H]5C[C@@](C)(C(=O)O)CC[C@]5(C)CC[C@@]4(C)[C@]3(C)CC[C@@H]12 | VERO | plaque count | Sugiyama | 1000 µg/mL |
| CC[C@@H](C(C)C)[C@H](O)[C@@H](O)[C@@H](C)[C@H]1CC[C@H]2[C@@H]3CC(=O)[C@@]4(O)C[C@H](O)[C@H](O)C[C@]4(C)[C@H]3CC[C@]12C | VERO | plaque count | MV/Brazil/001/91 | 58 µM |
| Nc1nccc2c1ncn2[C@@H]1C[C@H](CO)[C@@H](O)[C@H]1O | VERO | cytopathic effect | - | 0.4 µg/mL |

ECn is the concentration giving n% inhibition of infection, replication or growth. Rows are shuffled and stem from different studies.